These results are taken from PMC9763686 (The Journal of Biological Chemistry, 2022).

The test concerns the target NP of H7N9 IAV (in killed denatured H7N9 (H7-Re3) viral particles) (Influenza A virus H7N9 H7-Re3 vaccine …, UniProt P03466, strain). The test can be described thus: ELISA. (In an ELISA, binding on a coated surface is turned into a signal by an enzyme label.)

B1: H9N2-NP-Nb42-HRP (VHH)
VHH: ESGGESVQAGGSLRLSCATSGFTYNRSYCMAWFRQVLGKEREGVAVIDRVGGSTYYADSVKGRFTVSQDNAKTTLYLQMNSLTPEDTAMYYCAAVSTLMTTCQGLLAGHSQRYAYWGQGTQVTVSS
For the molecule B1, the binding result is on record as “binds”.

B2: H9N2-NP-Nb53-HRP (VHH)
VHH: ESGGGSVQAGGSLRLSCAASGYTFSNVYMGWFRQAPGKEREGVAAIDRDGRTTYGDSVKGRFTISQDNAKNILYLQMSSLKPEDTATYYCAADPGYVELISEPLAGIWYRYWGQGTQVTVSS
For the molecule B2, the binding result is “binds”.

B3: H9N2-NP-Nb16-HRP (VHH)
VHH: ESGGGSVQAGGSLRLSCAASGYTYSAYCMGWFRQAPGKEREEVASIDSDFGTNYADSVKGRFTISKDNPKNTLYLQMNNLKAEDTAMYYCAALKYSSSLCLDALPSRANYWGQGTQVTVSS
Consider B3, for which the binding result is listed as “binds”.

B4: H9N2-NP-Nb5-HRP (VHH)
VHH: ESGGGLVQPGGSLRLSCAASGFPFSDYDMNWARQAPGKELEDVSAISSGGTYTYYADSVKGRFTISRDNAKNTLYLQLNSLQTEDTAMYYCGRGWTSGYKSRGQGTQVTVSS
Take B4: the binding result is given as “binds”.

B5: H9N2-NP-Nb18-HRP (VHH)
VHH: ESGGGSVQAGGSLRLSCAASHTYGTYAMAWFRQAPGEEREGVAAIDSDGETIYADSVKGRFTISRDNAKNILYLQMNSLKPEDTAMYYCAEDLRGVWYGRLELRPGRFTYWGQGTQVTVSS
On to B5, for which the binding result was “binds”.
